{"source": "paper PMC12670160", "about": "“A drug-repurposing screen of FDA- and EMA-approved drugs identifies two NF-κB inhibitors active against eumycetoma” (Journal of Antimicrobial Chemotherapy, 2025)", "data": [{"tested_on": "M. mycetomatis strain mm55", "conditions": "primary screen, metabolic activity vs growth control; 96 h, 2 µM; inhibitor", "units": {"% viability": "%"}, "values": [{"smiles": "CN(C(=O)Cc1ccc(Cl)c(Cl)c1)[C@H]1CCCC[C@@H]1N1CCCC1", "% viability": 100.5}, {"smiles": "CN(C(=O)Cc1ccc(Cl)c(Cl)c1)[C@H]1CC[C@@]2(CCCO2)C[C@@H]1N1CCCC1", "% viability": 90.5}, {"smiles": "O=[N+]([O-])O[C@H]1CO[C@H]2[C@@H]1OC[C@H]2O[N+](=O)[O-]", "% viability": 111.9}]}]}
